Molecular target: GFP-M-HBsAg-3CA (C76A, C90A, C221A) (Hepatitis B virus (serotype ayw, genotype D3))
Assay: cryo-EM structure

## GFP-M-HBsAg-3CA (C76A, C90A, C221A) (natural protein)
  stoichiometry N: 2

Source: PMC12170907
